Pooled drug test results. Numbers come from NIAID ChemDB, via PubChem.

Shared fields: growth or infection tests; organism: HIV-1

Conditions beyond the fields shown may differ between rows. ECn: concentration that inhibits the pathogen or its effect by n%. Two numbers with a dash give a range or band. An empty or dashed field is not shown.

structure,cells,strain or isolate,changes,endpoint,setting,read by,result
Cc1ncc(-c2ccc(N(C)CCOc3ccc(Cl)cc3)cn2)c(N2CCC(C)(C)CC2)c1[C@H](OC(C)(C)C)C(=O)O,MT-2,NL4-3,-,EC50,-,luminescence,0.0016 µM
CC(C)CN(CC(O)CN1CCN(Cc2cccnc2)CC1C(=O)NC(C)(C)C)S(=O)(=O)c1ccccc1,CEM,IIIB,-,EC50,-,p24,<1 µM
C/C=C/CSc1cc(NC(=S)c2ccsc2C)ccc1Cl,PBMC,WEJO,-,EC50,-,p24,0.2 µM
Cc1ccc(S(=O)(=O)N2CCn3c(nc(C(=O)NCc4ccc(F)cc4)c(O)c3=O)C2)cc1,MT-4,-,-,EC50,-,p24,<50 µM
Cc1cc(/C=C/C#N)cc(C)c1Oc1nc(NC2CCN(Cc3cccc(Br)c3)CC2)nc2ccsc12,MT-4,IIIB,NNRTI-resistant (RT K103N),EC50,-,MTT,0.0295 µM
CN(C)CC1c2nc(C(=O)NCc3ccc(F)cc3)c(O)c(=O)n2CCN1Cc1ccn(C)n1,MT-4,-,-,EC50,-,p24,1–10 µM
CC(C)CN(CC(O)CCN1CCN(Cc2cccnc2)C[C@H]1C(=O)NC(C)(C)C)S(=O)(=O)c1ccccc1,CEM,IIIB,-,EC50,-,p24,<1 µM
COc1ccccc1C(=O)Nc1ccc(Cl)c(C(=O)OC(C)C)c1,CEM + CEM-SS,IIIB,-,EC50,-,cytopathic effect / XTT,1.3 µM
CC(C)n1c(=O)c(O)c2n(c1=O)C(CCOCc1ccccc1)CN(Cc1ccc(F)cc1)C2=O,MT-4,-,-,EC95,-,p24,<10 µM
COc1ccc(S(=O)(=O)N(CC(C)C)C[C@@H](O)CCN(CC2CCCC2)S(=O)(=O)Cc2cc(C(C)(C)C)on2)cc1,CEM,IIIB,-,EC50,-,p24,<1 µM
Cc1cc(C#N)cc(C)c1Oc1nc(NC2CCC(NCc3ccc(S(C)(=O)=O)cc3)CC2)nc2ccsc12,MT-4,IIIB,NNRTI-resistant (RT Y181C),EC50,-,MTT,>75.2 µM
Cc1nnc(C(=O)N[C@@]23CC[C@]4(C)C(CCC5[C@@]6(C)CC[C@H](OC(=O)[C@H]7CCC[C@@H](C(=O)O)C7)C(C)(C)C6CC[C@]54C)C2=C(C(C)C)C(=O)C3)o1,MT-2,IIIB,-,EC50,30% human serum,RT activity,0.2–0.999 µM
CN1c2ccccc2C2C1C=C(C#N)C(=O)N2c1ccc([N+](=O)[O-])cc1,HeLa,B-HXB2,-,EC50,-,GFP / fluorescence,0.17 µM
CC(C)n1c(=O)c(O)c2n(c1=O)C(CCN1CCOCC1)CN(Cc1ccc(F)cc1)C2=O,MT-4,-,-,EC50,-,p24,<10 µM
Cc1cc(C#N)cc(C)c1Oc1nc(NC2CCN(Cc3ccc(S(C)(=O)=O)cc3)CC2)nc2sccc12,MT-4,IIIB,NNRTI-resistant (RT Y188L),EC50,-,MTT,0.0096 µM
Cc1ccc(C(=O)NC(C)(C)CNC(=O)C[C@@]23CC[C@]4(C)[C@H](CC[C@@H]5[C@@]6(C)CC[C@H](OC(=O)[C@H]7C[C@@H](C(=O)O)C7(C)C)C(C)(C)[C@@H]6CC[C@]54C)C2=C(C(C)C)C(=O)C3)cn1,MT-2,92HT599,-,EC50,-,p24 / ELISA,<1 µM
Cc1ccncc1C(=O)N[C@@]12CC[C@]3(C)[C@H](CC[C@@H]4[C@@]5(C)CC[C@H](OC(=O)CC(C)(C)C(=O)O)C(C)(C)[C@@H]5CC[C@]43C)C1=C(C(C)C)C(=O)C2,MT-2,IIIB,-,EC50,30% human serum,RT activity,<0.199 µM
CC(C)CN(CC(O)CNc1cscc1S(=O)(=O)c1ccccc1)S(=O)(=O)c1ccccc1,CEM,IIIB,-,EC50,-,p24,<1 µM
CN(C)CC1c2nc(C(=O)NCc3ccc(F)cc3)c(O)c(=O)n2CCN1S(C)(=O)=O,MT-4,-,-,EC95,-,p24,<50 µM
CCCc1cc(=O)oc2c3c(c4c(c12)OC(C)(C)CC4)O[C@@H](C)[C@H](C)[C@@H]3O,CEM + CEM-SS,E BPTU-resistant (RT Y181C),RT-Y181C,EC50,-,XTT,<0.06 µM
COc1ccc(N(C)C(=O)[C@H](Cc2cc(F)cc(F)c2)NC(=O)Cn2c(=O)n(CC(=O)N[C@@H](Cc3cc(F)cc(F)c3)C(=O)N(C)c3ccc(OC)cc3)c3cc(OC)ccc32)cc1,MT-2,NL4-3,-,EC50,-,luciferase,0.04 µM
Cc1nnc(C(=O)N(C)[C@@]23CC[C@]4(C)C(CCC5[C@@]6(C)CC[C@H](OC(=O)CC(C)(C)C(=O)O)C(C)(C)C6CC[C@]54C)C2=C(C(C)C)C(=O)C3)o1,MT-2,IIIB,-,EC50,30% human serum,RT activity,<0.199 µM
CC(C)n1c(=O)c(O)c2n(c1=O)CCN(Cc1ccc(F)c(Cl)c1)C2=O,MT-4,-,-,EC95,-,p24,<10 µM
CC(C)C1=C2[C@H]3CC[C@@H]4[C@@]5(C)CC[C@H](OC(=O)CC(C)(C)C(=O)O)C(C)(C)[C@@H]5CC[C@@]4(C)[C@]3(C)CC[C@@]2(NC(=O)CCN2CCCC2)CC1=O,MT-2,IIIB,-,EC50,30% human serum,RT activity,<0.199 µM
Cc1cc(/C=C/C#N)cc(C)c1Oc1nc(NC2CCN(Cc3ccccc3Cl)CC2)nc2ccsc12,MT-4,IIIB,NNRTI-resistant (RT K103N),EC50,-,MTT,0.0291 µM
Cc1ncc(-c2cnc(OCC3CCCC3)c(F)c2)c(N2CCC(C)(C)CC2)c1[C@H](OC(C)(C)C)C(=O)O,MT-2,NL4-3,-,EC50,-,luminescence,0.005 µM
CC1(C)CC=C(c2cn(-c3nccc(C(=O)NC4CCC(N5CC6CCC(C5)O6)CC4)n3)c3ccc(F)c([C@H](OC(C)(C)C)C(=O)O)c23)CC1,MT-4,NL4-3,Y143C,EC50,-,luminescence,0.0061 µM
CN(C(=O)[C@H](Cc1cc(F)cc(F)c1)NC(=O)CS(=O)(=O)N[C@@H](Cc1cc(F)cc(F)c1)C(=O)N(C)c1ccc2nccnc2c1)c1ccc2nccnc2c1,MT-2,NL4-3,-,EC50,-,luciferase,30.38 µM
Cc1cc(C#N)cc(C)c1Oc1nc(NC2CCN(Cc3ccc(S(N)(=O)=O)cc3)CC2F)nc2ccsc12,MT-4,IIIB,NNRTI-resistant (RT K103N),EC50,-,MTT,0.00789 µM
COc1ccc(N(C)C(=O)[C@H](Cc2ccccc2)NC(=O)[C@@H]2CC[C@H](C(=O)N[C@@H](Cc3ccccc3)C(=O)N(C)c3ccc(OC)cc3)C2)cc1,MT-2,NL4-3,-,EC50,-,luciferase,1.14 µM
COc1ccc(S(=O)(=O)N(CC2CCCC2)C(=O)C(=O)C(=O)[C@@H](Cc2ccccc2)NC(=O)OC2COCOC2)cc1,CEM,IIIB,-,EC90,-,p24,1 µM
COc1ccnc2[nH]cc(C(=O)C(=O)N3C4CCCC3CN(C(=O)c3ccccc3)C4)c12,TZM-bl,ZM214,-,EC90,-,luciferase,38 µM
CC(C)C1=C2[C@H]3CC[C@@H]4[C@@]5(C)CC[C@H](OC(=O)[C@H]6C[C@@H](C(=O)O)C6(C)C)C(C)(C)[C@@H]5CC[C@@]4(C)[C@]3(C)CC[C@@]2(CCNC(=O)CN2CCS(=O)(=O)CC2)CC1=O,MT-2,92HT599,-,EC50,-,p24 / ELISA,<1 µM
COc1ccc(N(C)C(=O)[C@H](Cc2cc(F)cc(F)c2)NC(=O)c2ccc(F)c(C(=O)N[C@@H](Cc3cc(F)cc(F)c3)C(=O)N(C)c3ccc(OC)nc3)c2)cn1,MT-2,NL4-3,-,EC50,-,luciferase,0.37 µM
Cc1nnc(CN(CCN(C)C)C(=O)C[C@@]23CC[C@]4(C)[C@H](CC[C@@H]5[C@@]6(C)CC[C@H](OC(=O)[C@H]7C[C@@H](C(=O)O)C7(C)C)C(C)(C)[C@@H]6CC[C@]54C)C2=C(C(C)C)C(=O)C3)o1,MT-2,92HT599,-,EC50,-,p24 / ELISA,<1 µM
CN(C)C(=O)C(=O)N1CCN2CCn3c(nc(C(=O)NCc4ccc(F)cc4)c(O)c3=O)C1C2,MT-4,-,-,EC50,-,p24,<50 µM
CC(C)C1=C2[C@H]3CC[C@@H]4[C@@]5(C)CC[C@H](OC(=O)[C@H]6C[C@@H](C(=O)O)C6(C)C)C(C)(C)[C@@H]5CC[C@@]4(C)[C@]3(C)CC[C@@]2(CCNCC(C)(C)NC(=O)c2ccc(Cl)cc2OC2CCNCC2)CC1=O,MT-2,92HT599,-,EC50,-,p24 / ELISA,<1 µM
Cc1cc(/C=C/C#N)cc(C)c1Oc1nc(NC2CCN(Cc3ccc(Br)cc3)CC2)nc2ccsc12,MT-4,IIIB,NNRTI-resistant (RT E138K),EC50,-,MTT,0.154 µM
CC(C)C1=C2[C@H]3CC[C@@H]4[C@@]5(C)CC[C@H](OC(=O)CC(C)(C)C(=O)O)C(C)(C)[C@@H]5CC[C@@]4(C)[C@]3(C)CC[C@@]2(NC(=O)NCc2nncn2C)CC1=O,MT-2,IIIB,-,EC50,30% human serum,RT activity,>1 µM
CC(C)=CCOc1cc(NC(=S)c2ccoc2C)ccc1Cl,U-937,IIIB,-,EC50,-,cytopathic effect / XTT,0.005 µM
Cc1ncc(-c2ccc(OCC3CC3)nc2)c(N2CCC(C)(C)CC2)c1[C@H](OC(C)(C)C)C(=O)O,MT-2,NL4-3,-,EC50,-,luminescence,0.007 µM
COc1ccc(N(C)C(=O)[C@H](Cc2ccccc2)NC(=O)[C@H](C)NC(=O)N[C@@H](C)C(=O)N[C@@H](Cc2ccccc2)C(=O)N(C)c2ccc(OC)cc2)cc1,MT-2,NL4-3,-,EC50,-,luciferase,0.13 µM
CC(C)C1=C2C3CCC4[C@@]5(C)CC[C@H](OC(=O)CC(C)(C)C(=O)O)C(C)(C)C5CC[C@@]4(C)[C@]3(C)CC[C@@]2(NC(=O)c2cncnc2)CC1=O,MT-2,IIIB,-,EC50,30% human serum,RT activity,<0.199 µM
CC(C)=CCOc1cc(NC(=S)c2ccsc2C)ccc1Cl,CEM + CEM-SS,Calanolide A-resistant (RT T139I),RT-T139I,EC50,-,cytopathic effect / XTT,0.03 µM
Cc1ncc(-c2ccc(OCCC3CCCCC3)cc2)c(N2CCC(C)(C)CC2)c1[C@H](OC(C)(C)C)C(=O)O,MT-2,NL4-3,-,EC50,-,luminescence,0.0036 µM
CN1CCn2c(nc(C(=O)NCc3ccc(F)cc3)c(O)c2=O)C(NCC2CCCCC2)C1,MT-4,-,-,EC50,-,p24,<50 µM
O=C1c2c(O)c(=O)n(C3CCSCC3)c(=O)n2CCN1Cc1ccc(F)cc1,MT-4,-,-,EC50,-,p24,<10 µM
CN1CCn2c(nc(C(=O)NCc3ccc(F)c(Br)c3)c(O)c2=O)C1(C)C,MT-4,-,-,EC50,-,p24,<1 µM
Cc1ncc(-c2ccc(OCCn3ccnc3)cn2)c(N2CCC(C)(C)CC2)c1[C@H](OC(C)(C)C)C(=O)O,MT-2,NL4-3,-,EC50,-,luminescence,0.134 µM
COc1ccc(S(=O)(=O)N(CC2CCCC2)C(=O)C(=O)C(=O)[C@@H](Cc2ccccc2)NC(=O)O[C@H]2CCOC2)cc1,CEM,IIIB,-,EC90,-,p24,1 µM
CN(C(=O)[C@H](Cc1cc(F)cc(F)c1)NC(=O)NS(=O)(=O)N[C@@H](Cc1cc(F)cc(F)c1)C(=O)N(C)c1ccc(OC(F)F)nc1)c1ccc(OC(F)F)nc1,MT-2,NL4-3,-,EC50,-,luciferase,0.01 µM
Cc1ncc(-c2ccc(OC[C@@H](C)Oc3ccccc3)cn2)c(N2CCC(C)(C)CC2)c1[C@H](OC(C)(C)C)C(=O)O,MT-2,NL4-3,-,EC50,-,luminescence,0.0019 µM
CC(C)C1=C2[C@H]3CC[C@@H]4[C@@]5(C)CC[C@H](OC(=O)[C@H]6C[C@@H](C(=O)O)C6(C)C)C(C)(C)[C@@H]5CC[C@@]4(C)[C@]3(C)CC[C@@]2(CC(=O)N(CCN(C)C)Cc2cncnc2)CC1=O,MT-2,92HT599,-,EC50,-,p24 / ELISA,<1 µM
COc1ccnc2[nH]cc(C(=O)C(=O)N3C4CCC3CN(C(=O)c3ccccc3)C4)c12,TZM-bl,6535,-,EC50,-,luciferase,0.02 µM
CCOc1ccc(N(CC)C(=O)[C@H](Cc2ccccc2)NC(=O)NS(=O)(=O)N[C@@H](Cc2ccccc2)C(=O)N(CC)c2ccc(OCC)cc2)cc1,MT-2,NL4-3,-,EC50,-,luciferase,0.15 µM
CC(C)C1=C2[C@H]3CC[C@@H]4[C@@]5(C)CC[C@H](OC(=O)[C@H]6C[C@@H](C(=O)O)C6(C)C)C(C)(C)[C@@H]5CC[C@@]4(C)[C@]3(C)CC[C@@]2(CCNC[C@@H]2CCCNC2)CC1=O,MT-2,92HT599,-,EC50,-,p24 / ELISA,<1 µM
CC(C)[C@H](NC(=O)OCc1ccccn1)C(=O)N[C@@H](Cc1ccccc1)[C@@H](O)C[C@H](Cc1ccccc1)NC(=O)OCc1cccnc1,MT-4,NL4-3,PR-L63P V82T,EC50,-,p24,<1.5 µM
CC(=O)c1c(C)nc(-c2ccccc2)nc1NC(=O)c1ccccc1,HeLa,N119,-,EC50,-,GFP / fluorescence,>50 µM
Cc1cccc(C(=O)N[C@@]23CC[C@]4(C)[C@H](CC[C@@H]5[C@@]6(C)CC[C@H](OC(=O)CC(C)(C)C(=O)O)C(C)(C)[C@@H]6CC[C@]54C)C2=C(C(C)C)C(=O)C3)c1,MT-2,IIIB,-,EC50,30% human serum,RT activity,<0.199 µM
Cc1ccc(N(C)C(=O)[C@H](Cc2cc(F)cc(F)c2)NC(=O)CN2c3ccccc3N(CC(=O)N[C@@H](Cc3cc(F)cc(F)c3)C(=O)N(C)c3ccc(C)nc3)S2(=O)=O)cn1,MT-2,NL4-3,-,EC50,-,luciferase,0.02 µM